# Test results taken from US8383617B2, “Treatment of protein aggregation diseases” (priority 2007, dated 2013).
# Tested on: ScGT1 cells
# Experiment: Prion content of scrapie-infected cell line (Seprion capture assay)
# Format: cell-based, mouse
# Settings: 5 μM, first passage after one week exposure, listed as Fluphenazine (repeat)
compound,measurement,value
"OCCN1CCN(CCCN2c3ccccc3Sc3ccc(C(F)(F)F)cc32)CC1 [Fluphenazine, fluphenazine]","prion content signal, drug tested singly",0.687
